Data on 1 compound can be found in patent US20240287043A1, “KETOAMIDE DERIVATIVE AND APPLICATION THEREOF” (GUANGDONG RAYNOVENT BIOTECH CO., LTD., priority 2021, published 2024).

For orientation: IC50 means the concentration needed to halve the response being measured. A lower IC50 goes with greater potency. A word on the EC50: it is the concentration giving half of the maximal effect. Low readings indicate a more potent agent, high ones a less potent agent.

In one test the target is SARS-COV-2 Mpro (Severe acute respiratory syndrome coronavirus 2, UniProt P0DTD1). Description: In vitro inhibitory activity against Mpro protease of novel coronavirus (fluorescence substrate assay). The settings on record: 25 nM Mpro protein, 25 μM substrate. As for the experimental part:
• Tris: Sigma; • EDTA: Sigma; • NaCl: Sigma; • 384 well Plate: Perkin Elmer; • Dimethyl sulfoxide (DMSO): Sigma; • Substrate (Dabcyl-KTSAVLQSGFRKM-(Edans)): GenScript; • SARS-COV-2 Mpro: WuXi AppTec; • GC376: TargetMol.
The compounds were dissolved in DMSO and diluted in a 3-fold gradient using Echo655 according to the concentration required to be measured, with 10 concentration points and duplicate wells for each concentration, and added to a 384-well plate. […] . Simultaneously, a background well containing both the substrate and the compound but no Mpro protein was detected as control.
1) Inhibition rate was calculated using the formula below:
*HPE: a control with 100% inhibition, containing 25 nM Mpro protein+25 μM substrate+1 μM GC376; ZPE: a control without inhibition, containing 25 nM Mpro protein+25 μM substrate, no compound; Compound: a well with the test compound, containing 25 nM Mpro protein+25 μM substrate+Compound; BG: a background control well, containing 25 μM substrate+Compound, no Mpro protein.
2) The inhibition rate data (inhibition rate %) of the compounds were analyzed by nonlinear fitting of log(agonist) vs. response—Variable slope using a GraphPad Prism software, to obtain IC50 values of the compounds, with the experimental results shown in Table 1.

The subject of another test is HCoV OC43. In words: In vitro anti-coronavirus activity using a cytopathic model (CPE, CellTiter Glo). The settings on record: HCoV OC43 100 TCID50/well, MRC5 cells, 5 days. In general terms: Cytopathic effects are the visible damage that an infection or toxin causes in cultured cells.

`CC(C)(C)[C@H](NC(=O)C(F)(F)F)C(=O)N1CC2C(CCC23CC3)C1C(=O)N[C@@H](C[C@@H]1CCNC1=O)C(=O)C(=O)NC1CCCC1` (some centres unmarked) displayed an IC50 against SARS-COV-2 Mpro of 15 nM. Besides, the EC50 with HCoV OC43 worked out at 410 nM.
